Literature values, collected in patent publication US20070123520A1 (priority 2005, published 2007).

Test system: H5N1 virus
Settings: H5N1 virus currently infecting birds in Asia

Row | SMILES | resistance of H5N1 virus to the drug
1 | NC12CC3CC(CC(C3)C1)C2 [amantadine] | resistant
2 | CC(N)C12CC3CC(CC(C3)C1)C2 (centres unmarked) [rimantadine] | resistant
